Compound potency records, mixed from different reports. Data source: NIAID ChemDB in PubChem.

Common to all: growth or infection tests; agent: Cryptococcus neoformans; measure: MFC

An empty or dashed field is not shown. Neighbouring rows are from separate reports.

SMILES	strain or isolate	method	value
COc1ccc(CC(Cc2ccc(-c3ccccc3)cc2)n2ccnc2)cc1			33 µM
Fc1ccccc1CN(Cc1ccc(-c2ccccc2)cc1)n1ccnc1			33 µM
N=C(N)c1ccc(OCCCC(O)COc2ccc(C(=N)N)cc2)cc1	167.95		0.78 µg/mL
c1ccc(CC(Cc2ccc(-c3ccccc3)cc2)n2ccnc2)cc1			5.5 µM
Cc1onc(-c2nn(C)c(C)c2[N+](=O)[O-])c1[N+](=O)[O-]			>200 µM
c1cc2nc(CCCCc3nc4ccc(C5=NCCN5)cc4[nH]3)[nH]c2cc1C1=NCCN1	H99		>100 µg/mL
Cc1ccccc1CN(Cc1ccc(-c2ccccc2)cc1)n1ccnc1			5.5 µM
COC1CC2CCC(C)C(O)(O2)C(O)C(O)N2CCCCC2C(=O)OC(C(C)CC2CCC(O)C(OC)C2)CC(=O)C(C)/C=C(\C)C(O)C(OC)C(=O)C(C)CC(C)/C=C/C=C/C=C/1C	WILD TYPE		3.12 µg/mL
NC(=NC1CCCC1)c1ccc(-c2ccc(-c3ccc(C(N)=NC4CCCC4)cc3)o2)cc1	H99		6.25 µg/mL
Cc1cc(-c2c(N=O)c(C)nn2-c2ccccc2)no1			66 µM
CN[C@H]1CC[C@@H](c2ccc(Cl)c(Cl)c2)c2ccccc21	123.96	broth dilution	8 µg/mL
Clc1ccccc1CN(Cc1ccc(-c2ccccc2)cc1)n1ccnc1			33 µM
C[C@@H](n1cnc2cc(Cl)ccc2c1=O)[C@](O)(Cn1cncn1)c1ccc(F)cc1F	Isolate 125.96		20 µg/mL
CC(C)N=C(N)c1ccc2nc(-c3ccc(CCc4ccc(-c5nc6ccc(C(N)=NC(C)C)cc6[nH]5)cc4)cc3)[nH]c2c1	135.95		0.19 µg/mL
Cn1nc(Cc2ccc(Cl)cc2)c2ccccc2c1=O	Clinical isolate (IM 031633)	broth dilution	31.3 µg/mL
NCCNC(=O)C1=Nc2ccc(NC(=O)C3=Nc4ccc(C(=O)Nc5ccc6[nH]c(C(=O)NCCN)cc6c5)cc4C3)cc2C1	Serotype A		8 µg/mL
Clc1ccc(CC(Cc2ccc(-c3ccccc3)cc2)n2ccnc2)cc1			33 µM
Cc1cc(-c2cc(C)on2)n(CCO)n1			>200 µM
COc1cc(NC(C)CCCN)c2nc(C(C)(C)C)ccc2c1Oc1cccc(C(F)(F)F)c1			5 µg/mL
COC1CC2CCC(C)C(O)(O2)C(=O)C(=O)N2CCCCC2C(=O)OC(C(C)CC2CCC(O)C(OC)C2)CC(=O)C(C)/C=C(\C)C(O)[C@@](OC)(N(O)C(=O)OCC(C)C)C(=O)C(C)CC(C)/C=C/C=C/C=C/1C	FRR1		>100 µg/mL
Fc1ccc(CN(Cc2ccc(-c3ccccc3)cc2)n2ccnc2)c(F)c1			33 µM
Clc1ccc(CC(Cc2ccc(-c3ccccc3)cc2)n2ccnc2)c(Cl)c1			33 µM
C[C@@H](n1ncn(-c2ccc(OCC(F)(F)C(F)F)cc2)c1=O)[C@](O)(Cn1cncn1)c1ccc(F)cc1F	DUMC 251.86		>16 µg/mL
CCn1nc(-c2cc(C)on2)c(N=O)c1C			3.1 µM
Clc1ccccc1CC(Cc1ccc(-c2ccccc2)cc1)n1ccnc1			33 µM

2 of the rows above, restated:

SMILES	strain or isolate	method	value
CN[C@H]1CC[C@@H](c2ccc(Cl)c(Cl)c2)c2ccccc21	123.96	broth dilution	8 µg/mL
Fc1ccc(CN(Cc2ccc(-c3ccccc3)cc2)n2ccnc2)c(F)c1			33 µM